Pooled drug test results. Numbers come from NIAID ChemDB, via PubChem.

All rows: growth or infection tests; organism: Candida albicans; endpoint: MIC

Blank or dashed fields: not listed here.

{"structure": "O=C(CCn1ccnc1)c1cccc(O)c1", "strain": "RTCC 1003", "read by": "broth dilution", "value": ">64 µg/mL"}
{"structure": "C/C(=N\\NC(=O)CSc1ncn[nH]1)c1ccc(Cl)cc1", "strain": "ATCC 90028", "value": "200 µg/mL"}
{"structure": "Cc1ccc(-c2cc(-c3cn(-c4ccccc4)nc3-c3ccc(Br)s3)n(-c3ccccc3)n2)cc1", "value": "200 µg/mL"}
{"structure": "Cn1ncc2c([nH]c3ccccc32)c1=O", "read by": "broth dilution", "value": "250 µg/mL"}
{"structure": "NCCC(=O)N[C@H]1[C@@H](O)[C@H](n2cnc3c(N)ncnc32)O[C@@H]1C(=O)O", "strain": "FP633", "value": ">100 µg/mL"}
{"structure": "CCS(=O)(=O)c1nnc(-c2ccccc2[N+](=O)[O-])s1", "strain": "ATCC 10231", "value": "50 µg/mL"}
{"structure": "CC(n1ncnn1)C(O)(Cn1cncn1)c1ccc(Cl)cc1", "strain": "TA", "value": ">100 µg/mL"}
{"structure": "CC(=O)Nc1nc(CSC[C@@H](N)C(=O)N[C@H]2[C@@H](O)[C@H](n3cnc4c(N)ncnc43)O[C@@H]2C(=O)O)ns1", "strain": "FP633", "value": "25 µg/mL"}
{"structure": "CCCCCOc1ccc(-c2ccc(-c3ccc(C(=O)N[C@H]4CCCNC(=O)C5C[C@H](N)CN5C(=O)C(CCC[N+](C)(C)C)NC(=O)C(CCc5ccc(O)cc5)NC(=O)C5C[C@@H](O)CN5C(=O)C(C(C)O)NC4=O)cc3)cc2)cc1", "strain": "ATCC 10231", "value": "0.39 µg/mL"}
{"structure": "CCCSc1ccc2nc(NC(=O)OC)[nH]c2c1", "strain": "92-824", "conditions": "24 h", "value": "5 µg/mL"}
{"structure": "CC(O)C1NC(=O)C(CCc2ccc(O)cc2)NC(=O)C2C[C@@H](O)CN2C(=O)C(C(C)O)NC(=O)[C@@H](NC(=O)c2ccc(N3CCN(c4ccc(O)cc4)CC3)cc2)CCCNC(=O)C2C[C@H](N)CN2C1=O", "strain": "ATCC 10231", "value": "25 µg/mL"}
{"structure": "C[C@@H](n1cnnn1)[C@](O)(Cn1cncn1)c1ccc(F)cc1F", "strain": "TA", "value": ">100 µg/mL"}
{"structure": "C[C@H](N)C(=O)N[C@H]1[C@@H](O)[C@H](n2cnc3c(N)ncnc32)O[C@@H]1C(=O)O", "strain": "FP633", "value": "100 µg/mL"}
{"structure": "COc1ccc(C(Cc2cccc(F)c2)n2ccnc2)cc1", "value": "51 µg/mL"}
{"structure": "CCOC(=O)c1c(C=O)c2ccccc2n1C", "read by": "broth dilution", "value": "250 µg/mL"}
{"structure": "O=C(Nc1nc2ccc(NC(=O)[C@@H]3CCC[C@H](NCc4ccc5ccccc5c4)C3)cc2s1)C1CCCC1", "strain": "IFM 47597 (KB)", "value": "3.13 µM"}
{"structure": "COc1ccc(C[C@H](N)C(=O)N[C@H]2[C@@H](O)[C@H](n3cnc4c(OC)ncnc43)O[C@@H]2C(=O)O)cc1", "strain": "FP633", "value": ">100 µg/mL"}
{"structure": "CCCCCCCCCCCC[N+](C)(C)COCCC(C)CCCC(C)C", "strain": "ATCC 10231", "value": "238 µM"}
{"structure": "Cn1c2ccccc2c2c(N)n[nH]c(=O)c21", "read by": "broth dilution", "value": "250 µg/mL"}
{"structure": "COc1cncc(-c2nc(C)[n+](C)[nH]2)n1", "read by": "broth dilution", "value": ">256 µg/mL"}
{"structure": "c1ccc(CO/N=C(/Cn2ccnc2)c2ccccc2)cc1", "strain": "PR1", "value": "64 µg/mL"}
{"structure": "Cc1ccc(C2=NN(S(C)(=O)=O)C(c3cn(-c4ccccc4)nc3-c3ccc(Br)s3)C2)cc1", "value": ">200 µg/mL"}
{"structure": "CCCCCCCCN1CCN(c2ccc(C(=O)N[C@H]3CCCNC(=O)C4C[C@H](N)CN4C(=O)C(C(C)O)NC(=O)C(CCc4ccc(O)cc4)NC(=O)C4C[C@@H](O)CN4C(=O)C(C(C)O)NC3=O)cc2)CC1", "strain": "ATCC 62376", "value": "1.56 µg/mL"}
{"structure": "CCc1nc(SCC(=O)N/N=C(\\C)c2ccc(O)cc2)n[nH]1", "strain": "ATCC 90028", "value": "400 µg/mL"}
{"structure": "FC(F)(F)c1ccc(-c2c[nH]cc2C(c2ccc(Cl)cc2Cl)n2ccnc2)cc1", "value": "2.2 µg/mL"}
{"structure": "COc1cc(O)c2c(c1)C(=O)c1c(cc3c(c1O)-c1c(cc(C)c(C(=O)NC(CO)C(=O)O)c1O)[C@H](OC1OC(C)C(O)C(OC4OCC(O)C(O)C4O)C1O)C3O)C2=O", "strain": "SC14061 (azole-resistant)", "value": "4 µg/mL"}
{"structure": "CCS(=O)(=O)c1nnc(-c2ccc([N+](=O)[O-])cc2)s1", "strain": "ATCC 10231", "value": "50 µg/mL"}
{"structure": "CCC(C)n1ncn(-c2ccc(N3CCN(c4ccc(OC[C@H]5CO[C@](Cn6cncn6)(c6ccc(Cl)cc6Cl)O5)cc4)CC3)cc2)c1=O", "strain": "Isolate CA-9", "value": ">8 µg/mL"}
{"structure": "C/C(=N\\NC(=O)CSc1ncn[nH]1)c1ccc(O)cc1", "strain": "ATCC 90028", "value": "200 µg/mL"}
{"structure": "Cc1ccc(C(C)C)cc1", "strain": "H37", "value": "5 µg/mL"}
{"structure": "Cc1ccc(O)c(C(=O)/C=C/c2ccc(O)cc2O)c1", "strain": "SDAU1", "value": "75 µg/mL"}
{"structure": "Clc1ccc(/C(Cn2ccnc2)=N\\OCc2ccccc2)cc1", "strain": "CA7", "value": "16 µg/mL"}
{"structure": "CCCS(=O)c1nnc(Cc2cc([N+](=O)[O-])ccc2-c2ncc[nH]2)s1", "strain": "ATCC 10231", "value": "25 µg/mL"}
{"structure": "Cc1ccc(C2=NN(S(=O)(=O)c3ccc(C)cc3)C(c3cn(-c4ccccc4)nc3-c3ccc(Br)s3)C2)cc1", "value": ">200 µg/mL"}
{"structure": "Oc1ccc(-c2c[nH]cc2C(c2ccc(Cl)cc2Cl)n2ccnc2)cc1", "value": "26 µg/mL"}
{"structure": "CCOC(=O)c1cc2ccccc2[nH]1", "read by": "broth dilution", "value": "250 µg/mL"}
{"structure": "NN=C(N)c1cnccn1", "read by": "broth dilution", "value": "256 µg/mL"}
{"structure": "CC[C@@H]([C@H](C)O)n1ncn(-c2ccc(N3CCN(c4ccc(OC[C@@H]5CO[C@@](Cn6cncn6)(c6ccc(F)cc6F)C5)cc4)CC3)cc2)c1=O", "strain": "Isolate CA-10", "value": ">4 µg/mL"}
{"structure": "COC(c1ccccc1)C(N)C(=O)N[C@H]1[C@@H](O)[C@H](n2cnc3c(N)ncnc32)O[C@@H]1C(=O)O", "strain": "FP633", "value": ">100 µg/mL"}
{"structure": "Cc1ccc(-n2ncc3c([nH]c4ccccc43)c2=O)cc1C", "read by": "broth dilution", "value": "250 µg/mL"}
{"structure": "c1ccc(-c2nc(-c3cnccn3)[nH][n+]2-c2ccccc2)cc1", "read by": "broth dilution", "value": "128 µg/mL"}
{"structure": "O=[n+]1c(Sc2ccccc2)c(CBr)n([O-])c2ccccc21", "strain": "Clinical isolate 7", "value": "31.25 µg/mL"}
{"structure": "CCCCCCCCCCCCCC[C@H](N)C(=O)N[C@H](C(=O)O)C1O[C@@H](n2ccc(=O)[nH]c2=O)[C@H](O)[C@@H]1O", "strain": "124 (nikkomycin-S)", "value": ">320 µg/mL"}
{"structure": "Clc1ccc(/C(Cn2ccnc2)=N/OCc2ccccc2)cc1", "strain": "CDCB385", "value": "4 µg/mL"}
{"structure": "CCc1nc(SCC(=O)N/N=C(\\C)c2ccccc2Cl)n[nH]1", "strain": "ATCC 90028", "value": "400 µg/mL"}
{"structure": "Cc1ccc(C2=NN(C(=O)c3ccccc3)C(c3cn(-c4ccccc4)nc3-c3ccc(Br)s3)C2)cc1", "value": ">200 µg/mL"}
{"structure": "Cc1c(Cl)[n+](=O)c2cc(Cl)ccc2n1[O-]", "strain": "Clinical isolate 16", "value": "7.8 µg/mL"}
{"structure": "CCCCCOc1ccc(-c2ccc(-c3ccc(C(=O)N[C@H]4CCCNC(=O)[C@@H]5C[C@H](N)CN5C(=O)[C@H](CCCN=C(N)N)NC(=O)C(CCc5ccc(O)cc5)NC(=O)[C@@H]5C[C@@H](O)CN5C(=O)[C@H]([C@@H](C)O)NC4=O)cc3)cc2)cc1", "strain": "ATCC 62376", "value": "0.39 µg/mL"}
{"structure": "OC(CCn1ccnc1)c1ccc(Br)cc1", "strain": "RTCC 1003", "read by": "broth dilution", "value": ">64 µg/mL"}
{"structure": "Fc1ccc(/C(Cn2ccnc2)=N/OCc2ccccc2)cc1", "strain": "CA12", "value": ">128 µg/mL"}
{"structure": "CCc1nc(SCC(=O)N/N=C(\\C)c2ccc([N+](=O)[O-])cc2)n[nH]1", "strain": "ATCC 90028", "value": "400 µg/mL"}
{"structure": "C[C@@H](n1ccnn1)[C@](O)(Cn1cncn1)c1ccc(F)cc1F", "strain": "TA", "value": ">100 µg/mL"}
{"structure": "CCCCCCCCCOC[N+](C)(C)CCCCCCCC", "strain": "ATCC 10231", "value": "28.6 µM"}
{"structure": "CC(n1ncnn1)C(O)(Cn1cncn1)c1ccccc1F", "strain": "TA", "value": ">100 µg/mL"}
{"structure": "CCOc1cc2c(cc1F)n([O-])c(C)c(S(=O)(=O)c1ccccc1)[n+]2=O", "strain": "Clinical isolate 12", "value": "15.6 µg/mL"}
{"structure": "O=C(CCn1ccnc1)c1ccc2ccccc2c1", "strain": "RTCC1024", "read by": "broth dilution", "value": ">64 µg/mL"}
{"structure": "O[C@](Cn1cncn1)(Cn1cnc(/C=C/c2ccc(OCC(F)(F)C(F)F)cc2)n1)c1ccc(F)cc1F", "strain": "Isolate 06-1", "value": "4 µg/mL"}
{"structure": "CCCCCCCCCCCC[N+](C)(C)COC(C)C", "strain": "ATCC 10231", "value": "311 µM"}
{"structure": "CCCCCOc1ccc(-c2ccc(-c3ccc(C(=O)N[C@H]4CCCNC(=O)C5C[C@H](N)CN5C(=O)C(C(C)C)NC(=O)C(CCc5ccc(O)cc5)NC(=O)C5C[C@@H](O)CN5C(=O)C(C(C)O)NC4=O)cc3)cc2)cc1", "strain": "ATCC 62376", "value": "50 µg/mL"}
{"structure": "C[C@H]1[C@H](O)[C@@H](C)/C=C/C=C/C=C/C=C/C=C/C=C/C=C/[C@H](O[C@@H]2O[C@H](C)[C@@H](O)[C@H](N)[C@@H]2O)C[C@@H]2O[C@](O)(C[C@@H](O)C[C@@H](O)CC[C@H](O)[C@@H](O)C[C@@H](O)CC(=O)O[C@H]1C)C[C@H](O)[C@H]2C(=O)O", "strain": "ATCC 64549", "value": "0.5 µg/mL"}
{"structure": "Nc1ncnc2c1ncn2[C@@H]1O[C@H](C(=O)NCC(=O)O)[C@@H](NC(=O)[C@H](N)CSCc2ccccc2)[C@H]1O", "strain": "FP633", "value": "100 µg/mL"}
{"structure": "CCSc1nnc(-c2ccc([N+](=O)[O-])cc2)s1", "strain": "ATCC 10231", "value": ">100 µg/mL"}
{"structure": "COc1cncc(C(N)=NN(C)S(=O)(=O)c2ccc(C)cc2)n1", "read by": "broth dilution", "value": ">256 µg/mL"}
{"structure": "O=C1c2ccccc2CC1Cn1ccnc1", "strain": "RTCC1024", "read by": "broth dilution", "value": ">64 µg/mL"}
{"structure": "CN[C@@H]1[C@H](O[C@@H]2O[C@H](CO)[C@@H](O)[C@H](S(=O)(=O)O)[C@H]2O)[C@@H](O)[C@H](O[C@H]2c3cc(C)c(C(=O)N[C@H](CO)C(=O)O)c(O)c3-c3c(cc4c(c3O)C(=O)c3cc(OC)cc(O)c3C4=O)[C@@H]2O)O[C@@H]1C", "strain": "ATCC 32354", "value": "12.5 µg/mL"}
{"structure": "CC(n1ccnn1)C(O)(Cn1cncn1)c1ccc(C(F)(F)F)cc1", "strain": "TA", "value": ">100 µg/mL"}
{"structure": "CCCCCOc1ccc(-c2ccc(-c3ccc(C(=O)N[C@H]4CCCNC(=O)[C@@H]5C[C@H](NC(C)=O)CN5C(=O)[C@H]([C@@H](C)O)NC(=O)[C@H](CCc5ccc(O)cc5)NC(=O)[C@@H]5C[C@@H](O)CN5C(=O)[C@H]([C@@H](C)O)NC4=O)cc3)cc2)cc1", "strain": "ATCC 10231", "value": "0.2 µg/mL"}
{"structure": "O=C(/C=C/c1cc(O)ccc1O)c1ccccc1", "strain": "SDAU6", "value": "100 µg/mL"}
{"structure": "CN(CCCC#CC(C)(C)C)c1cccc2c1CCC(=O)N2", "strain": "Clinical isolate 8", "value": "31.25 µg/mL"}
{"structure": "Cn1cc(-c2ccccc2Cl)c(C(c2ccc(Cl)cc2Cl)n2ccnc2)c1", "value": "0.36 µg/mL"}
{"structure": "CCc1nc(SCC(=O)N/N=C(\\C)c2ccccc2O)n[nH]1", "strain": "ATCC 90028", "value": "200 µg/mL"}
{"structure": "CCCCCCCCCCCC[N+](C)(C)COC(CCC)CCC", "strain": "ATCC 10231", "value": "26.4 µM"}
{"structure": "COCCOCCOCCOCCOCCOCCNC(=O)[C@H]1[C@@H]2C[C@@H](O[C@@H]3O[C@H](C)[C@@H](O)[C@H](N)[C@@H]3O)/C=C/C=C/C=C/C=C/C=C/C=C/C=C/[C@H](C)[C@@H](O)[C@H](C)[C@H](C)OC(=O)C[C@H](O)C[C@H](O)[C@@H](O)CC[C@H](O)C[C@H](O)C[C@](O)(C[C@@H]1O)O2", "strain": "Isolate 92-1729", "value": "3.03 µg/mL"}

6 of the rows above, restated:

structure,strain,read by,conditions,value
CCCS(=O)c1nnc(Cc2cc([N+](=O)[O-])ccc2-c2ncc[nH]2)s1,ATCC 10231,-,-,25 µg/mL
Cc1ccc(-c2cc(-c3cn(-c4ccccc4)nc3-c3ccc(Br)s3)n(-c3ccccc3)n2)cc1,-,-,-,200 µg/mL
Cn1ncc2c([nH]c3ccccc32)c1=O,-,broth dilution,-,250 µg/mL
CC[C@@H]([C@H](C)O)n1ncn(-c2ccc(N3CCN(c4ccc(OC[C@@H]5CO[C@@](Cn6cncn6)(c6ccc(F)cc6F)C5)cc4)CC3)cc2)c1=O,Isolate CA-10,-,-,>4 µg/mL
Cc1c(Cl)[n+](=O)c2cc(Cl)ccc2n1[O-],Clinical isolate 16,-,-,7.8 µg/mL
CN(CCCC#CC(C)(C)C)c1cccc2c1CCC(=O)N2,Clinical isolate 8,-,-,31.25 µg/mL

Neighbouring rows are from separate reports.